T1: Biotinylated junctional peptide Pep21 (PfCSP peptide 21), Q7K740
T1 chain: NPDPNANPNVDPNAN


Biological target: T1, Biotinylated junctional peptide Pep21 …
Test: BLI
Settings: chain shown with the change;; parent: est. 21; read off a plot

Binder	Kd
m43.151 Fab H:T96M (protein) chain 1: QVHLVQSGAEVKKPGASVKVSCKASGYTFTSYAIHWVRQAPGQRLEWMGWIKGGNGNTRYSQKFQDRVTITRDTSASTAYMELSSLRSEDTAVYYCALLMVITPDDAFDIWGQGTMVTVSS chain 2: DIVMTQSPDSLAVSLGERATINCKSSQNILYSSNNKNYLAWYQQKPGQPPKLLFYWASTRESGVPDRFSGSGSGTDFTLTISSLQAEDVAVYYCHQYYSSPLTFGGGTKVEIK	0.019 µM
m43.151 Fab H:A100cR (protein) chain 1: QVHLVQSGAEVKKPGASVKVSCKASGYTFTSYAIHWVRQAPGQRLEWMGWIKGGNGNTRYSQKFQDRVTITRDTSASTAYMELSSLRSEDTAVYYCALLTVITPDDRFDIWGQGTMVTVSS chain 2: DIVMTQSPDSLAVSLGERATINCKSSQNILYSSNNKNYLAWYQQKPGQPPKLLFYWASTRESGVPDRFSGSGSGTDFTLTISSLQAEDVAVYYCHQYYSSPLTFGGGTKVEIK	0.014 µM

Source: article PMC12269619
